Laboratory results: patent publication US7846971B2, “N-halogenated amino acids, N,N-dihalogenated amino acids and derivatives; compositions and methods of using them” (Novabay Pharmaceuticals, Inc., priority 2005, dated 2010)

System: Primary Human Skin Fibroblasts
Test: XTT cytotoxicity assay on primary human skin fibroblasts
Assay type: cell-based
Protocol: Cytotoxicity was assessed by a colorimetric assay system, initially described by Scudiero et al., using 3′-(phenylamino-carbonyl)-3,4-tetrazolium-bis (4-methoxy-6-nitro) benzene sulfonic acid hydrate (XTT), ProCheck™ cell viability assay (Evaluation of a soluble tetrazolium/formazan assay for cell growth and drug sensitivity in culture using human and other tumor cell lines described by Scudiero D A, Shoemaker R A H, Paul K D, Monks A, Tierney S, Nofziger T H, Currens M J, Seniff D, Boyd M R. Cancer Res. 1988 Septmeber 1;48(17):4827-33). Similar approaches for determining the cell viability are used by other investigators. Three cell types were used: mouse lung epithelial cells (L929), primary human skin fibroblast and primary human keratinocyte cells cultured in Dulbecco Modified Eagle's Medium and Keratinocyte defined medium with corresponding growth factors plus antibiotics. Cells were trypsinized and counted under the microscope and seeded at 1000-to-2000 cells per well of a flat-bottom 96-well plate. Cells were allowed to grow over-night at 37° C. Next day, tissue culture media was removed and cells were rinsed with fresh media 1× and then left in 50 μL of tissue culture media. […] Absorbance was read at 450 nm with reference wavelength at 750 nm using Molecular Device ThermoMax Plate reader, blanking the plate on the medium-only assay blank wells. […]

OCl [HOCl, hypochlorous acid, reference compound]
therapeutic index (TI), IC50 over MBC (Table 2): about 300 | T.I. on HF (Therapeutic Index, primary human skin fibroblast cells) (pH 3.5, IC50/MBC E. coli): 297
